Data from article PMC4417968, “Role of Acidic Residues in Helices TH8–TH9 in Membrane Interactions of the Diphtheria Toxin T Domain” (Toxins, 2015).

B1: diphtheria toxin T domain single mutant E362Q (domain or fragment)
chain: not shown
notes: diphtheria toxin T domain, […], with E362Q; a thrombin cleavage site stands between the His tag and the domain; source: monomeric fractions
B2: diphtheria toxin T domain double mutant E349Q/D352N (domain or fragment)
chain: not shown
notes: diphtheria toxin T domain, […], with E349Q and D352N; a thrombin cleavage site stands between the His tag and the domain; source: monomeric fractions

Molecular target: the molecule itself
Experiment: SEC; 25 uM previously purified monomeric fractions incubated in 50 mM phosphate buffer pH 6.5; TSK-Gel G2000 SWXL column equilibrated at pH 6.5, 0.5 mL/min; monomer to dimer

Protein | stoichiometry N
B1 | 2
B2 | 2
